Measured values from several laboratories, pooled; numbers as filed in NIAID ChemDB.

Common to all: growth or infection tests; organism: Mycobacterium avium complex; endpoint: MIC

Blank or dashed fields: not listed here. Rows are shuffled and stem from different studies. a–b is a range or a potency band.

SMILES	strain	value
NCC[C@H](O)C(=O)N[C@@H]1C[C@H](N)[C@@H](O[C@H]2O[C@H](CN)[C@@H](O)[C@H](O)[C@H]2O)[C@H](O)[C@H]1O[C@H]1O[C@H](CO)[C@@H](O)[C@H](N)[C@H]1O	905	8 µg/mL
O=C1c2cc(Cl)ccc2-n2c1nc1cc(F)ccc1c2=O	101	<0.2 µg/mL
CC1(C)S[C@@H]2[C@H](NC(=O)[C@H](C(=O)[O-])c3ccsc3)C(=O)N2[C@H]1C(=O)[O-].[Na+].[Na+]	CIPT 140310006	35 µg/mL
COc1cc(NCc2cnc3nc(N)nc(N)c3c2C)cc(OC)c1OC	NJ168	≤0.13 µg/mL
CN[C@@H]1[C@H](O[C@H]2[C@H](O[C@H]3[C@H](O)[C@@H](O)[C@H](N=C(N)N)[C@@H](O)[C@@H]3N=C(N)N)O[C@@H](C)[C@]2(O)C=O)O[C@@H](CO)[C@H](O)[C@H]1O	N-980 (HIV+)	4 µg/mL
Cc1ccc(C)c(CSc2nc(=O)[nH]c3nc[nH]c23)c1	NJ211	>12.8 µg/mL
COc1cccc2c1n([O-])c1cccc(OC)c1[n+]2=O	101	16 µg/mL
Cc1ccc(CSc2ccncc2)cc1	NJ211	>12.8 µg/mL
O=C1c2c(Cl)cccc2-n2c1nc1ncccc1c2=O	19075	25 µg/mL
CC[C@H]1OC(=O)[C@H](C)[C@@H](O[C@H]2C[C@@](C)(OC)[C@@H](O)[C@H](C)O2)[C@H](C)[C@@H](O[C@@H]2O[C@H](C)C[C@H](N(C)C)[C@H]2O)[C@](C)(OC)C[C@@H](C)C(=O)[C@H](C)[C@@H](O)[C@]1(C)O	4 strains	4–8 µg/mL
O=C1c2c(cccc2C(F)(F)F)-n2c1nc1ccncc1c2=O	19075	5 µg/mL
CCCCCCNNC(=O)O[C@H]1[C@H](O[C@@H]2[C@@H](C)[C@H](O[C@H]3C[C@@](C)(OC)[C@@H](OC(C)=O)[C@H](C)O3)[C@@H](C)C(=O)O[C@H](CC)[C@@](C)(O)[C@H](O)[C@@H](C)/C(=N/OCCCC3CCCCC3)[C@H](C)CC2(C)O)O[C@H](C)C[C@@H]1N(C)C	20092 (clarithromycin-resistant)	1.56 µg/mL
Clc1cccc(Sc2nc(Cl)nc3nc[nH]c23)c1	NJ211	>12.8 µg/mL
COc1cccc2c(=O)n3c(nc12)C(=O)c1cc(I)ccc1-3	19075	1 µg/mL
CO[C@H]1/C=C/O[C@@]2(C)Oc3c(C)c(O)c4c(=O)c(c5oc6cc(N7CCN(CC(C)C)CC7)cc(=O)c6nc5c4c3=C2O)NC(=O)/C(C)=C\C=C\[C@H](C)[C@H](O)[C@@H](C)[C@@H](O)[C@@H](C)[C@H](OC(C)=O)[C@@H]1C	N-260	0.06 µg/mL
O=C(NCCCl)N1CCC(CN=c2cc3n(-c4ccc(Cl)cc4)c4ccccc4nc-3cc2Nc2ccc(Cl)cc2)CC1	100	8 µg/mL
N[C@@H]1CN(c2c(F)cc3c(=O)c(C(=O)O)cn([C@@H]4C[C@@H]4F)c3c2Cl)CC12CC2	101	8 µg/mL
CCCCCCCCO[C@H]1O[C@H](CO[C@H]2O[C@H](CN(CC3CCCCC3)CC3CCCCC3)[C@@H](O)[C@@H]2O)[C@@H](O)[C@@H]1O	NJ211	16 µg/mL
Cc1c(CNc2cccc3ncccc23)cnc2nc(N)nc(N)c12	NJ3404	≤0.13 µg/mL
CC(C)N=c1cc2n(-c3ccc(Cl)cc3)c3ccccc3nc-2cc1Nc1ccc(Cl)cc1	-	0.1 µg/mL
CC[C@H]1OC(=O)[C@H](C)[C@@H](O[C@H]2C[C@@](C)(OC)[C@@H](O)[C@H](C)O2)[C@H](C)[C@@H](O[C@@H]2O[C@H](C)C[C@H](N(C)C)[C@H]2O)[C@](C)(O)C[C@@H](C)CN(C)[C@H](C)[C@@H](O)[C@]1(C)O	SK095	128 µg/mL
c1c[nH]c(Sc2ncnc3nc[nH]c23)n1	NJ211	>12.8 µg/mL
Cc1c(CNc2ccc(Cl)c3ccccc23)cnc2nc(N)nc(N)c12	NJ3404	≤0.13 µg/mL
CCNC(=O)[C@@H](NC(=O)Cc1ccccc1)[C@@H]1N[C@@H](C(=O)NCCNC(=O)[C@@H]2N[C@@H]([C@H](NC(=O)Cc3ccccc3)C(=O)NCC)SC2(C)C)C(C)(C)S1	CIPT 140310003 (rough)	30 µg/mL
CC(C)NC(=O)N1CCC(CN=c2cc3n(-c4ccc(Cl)cc4)c4ccccc4nc-3cc2Nc2ccc(Cl)cc2)CC1	101	8 µg/mL
Cc1c(CNc2cccc(Cl)c2)cnc2nc(N)nc(N)c12	NJ168	≤0.13 µg/mL
O=C1c2cc(I)ccc2-n2c1nc1c(I)cc(I)cc1c2=O	19075	5 µg/mL
CCCCCNC(=O)O[C@H]1C(O[C@@H]2[C@@H](C)[C@H](O[C@H]3C[C@@](C)(OC)[C@@H](OC(C)=O)[C@H](C)O3)[C@@H](C)C(=O)O[C@H](CC)[C@@](C)(O)[C@H](O)[C@@H](C)/C(=N/OCCCC3CCCCC3)[C@H](C)CC2(C)O)O[C@H](C)C[C@@H]1N(C)C	20045	0.2 µg/mL
NC[C@H]1O[C@H](O[C@H]2[C@H](O)[C@@H](O[C@H]3O[C@H](CO)[C@@H](O)[C@H](N)[C@H]3O)[C@H](N)C[C@@H]2N)[C@H](O)[C@@H](O)[C@@H]1O	CIPT 140310012	10 µg/mL
CC[C@H]1OC(=O)[C@H](C)[C@@H](O[C@H]2C[C@@](C)(OC)[C@@H](OC(C)=O)[C@H](C)O2)[C@H](C)[C@@H](OC2O[C@H](C)C[C@H](N(C)C)[C@H]2OC(=O)NCC(=O)NC)C(C)(O)C[C@@H](C)/C(=N\OCCCC2CCCCC2)[C@H](C)[C@@H](O)[C@]1(C)O	20096	0.78 µg/mL
Cc1c(F)c(N2CCNC(C)C2)cc2c1c(=O)c(C(=O)O)cn2C1CC1	clinical strain 2	8 µg/mL
CO[C@H]1/C=C/O[C@@]2(C)Oc3c(C)c(O)c4c(=O)c(c5oc6cc(N7CCN(CC(C)C)CC7)cc(=O)c6nc5c4c3=C2O)NC(=O)/C(C)=C\C=C\[C@H](C)[C@H](O)[C@@H](C)[C@@H](O)[C@@H](C)[C@H](OC(C)=O)[C@@H]1C	N-962 (HIV+)	0.0625 µg/mL
CCCCCCCCNC(=O)O[C@H]1C(O[C@@H]2[C@@H](C)[C@H](O[C@H]3C[C@@](C)(OC)[C@@H](OC(C)=O)[C@H](C)O3)[C@@H](C)C(=O)O[C@H](CC)[C@@](C)(O)[C@H](O)[C@@H](C)/C(=N/OCCCC3CCCCC3)[C@H](C)CC2(C)O)O[C@H](C)C[C@@H]1N(C)C	20045	0.39 µg/mL
NNC(=O)c1ccncc1	N-319 (HIV-)	2 µg/mL
CCCCNC(=O)O[C@H]1C(O[C@@H]2[C@@H](C)[C@H](O[C@H]3C[C@@](C)(OC)[C@@H](OC(C)=O)[C@H](C)O3)[C@@H](C)C(=O)O[C@H](CC)[C@@](C)(O)[C@H](O)[C@@H](C)/C(=N/OCCCC3CCCCC3)[C@H](C)CC2(C)O)O[C@H](C)C[C@@H]1N(C)C	20034	0.1 µg/mL

For reference, 2 entries again:

{"SMILES": "O=C1c2c(cccc2C(F)(F)F)-n2c1nc1ccncc1c2=O", "strain": "19075", "value": "5 µg/mL"}
{"SMILES": "NC[C@H]1O[C@H](O[C@H]2[C@H](O)[C@@H](O[C@H]3O[C@H](CO)[C@@H](O)[C@H](N)[C@H]3O)[C@H](N)C[C@@H]2N)[C@H](O)[C@@H](O)[C@@H]1O", "strain": "CIPT 140310012", "value": "10 µg/mL"}